Data reported in patent publication US20170088605A1 (Novartis, published 2017).
Numbering of substitutions follows the chain as printed.

Key:
[1] = molecular target: T1, BKV serotype I VP1 pentamer (BK virus serotype I, UniProt P03088 30-297); experiment: SPR, antibody captured on Protein A
T1 construct: also called serotype I pentamers; BKV-VP1 serotype I pentameric protein
T1 chain: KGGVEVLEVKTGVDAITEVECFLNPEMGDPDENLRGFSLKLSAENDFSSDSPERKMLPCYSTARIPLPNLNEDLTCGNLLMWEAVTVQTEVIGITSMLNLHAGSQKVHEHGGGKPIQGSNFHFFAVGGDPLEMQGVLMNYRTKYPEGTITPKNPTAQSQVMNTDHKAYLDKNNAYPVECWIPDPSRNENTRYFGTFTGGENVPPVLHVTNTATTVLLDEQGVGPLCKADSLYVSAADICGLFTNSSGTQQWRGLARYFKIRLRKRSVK

[2] = molecular target: T2, BKV serotype III VP1 pentamer (BK virus serotype III, UniProt P14996 30-297); experiment: SPR, antibody captured on Protein A
T2 construct: also called serotype III pentamers
T2 chain: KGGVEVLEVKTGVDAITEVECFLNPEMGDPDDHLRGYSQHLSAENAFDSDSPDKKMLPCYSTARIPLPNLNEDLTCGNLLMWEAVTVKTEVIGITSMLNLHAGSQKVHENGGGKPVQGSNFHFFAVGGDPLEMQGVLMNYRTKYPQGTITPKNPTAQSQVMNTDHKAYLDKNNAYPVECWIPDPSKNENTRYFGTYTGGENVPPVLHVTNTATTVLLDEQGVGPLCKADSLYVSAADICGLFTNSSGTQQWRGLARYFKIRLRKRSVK

[3] = molecular target: T3, BKV serotype IV VP1 pentamer (BK virus serotype IV, UniProt P14996 30-297); experiment: ELISA on coated BKV serotype IV VP1 pentamers
T3 construct: also called serotype IV pentamers
T3 chain: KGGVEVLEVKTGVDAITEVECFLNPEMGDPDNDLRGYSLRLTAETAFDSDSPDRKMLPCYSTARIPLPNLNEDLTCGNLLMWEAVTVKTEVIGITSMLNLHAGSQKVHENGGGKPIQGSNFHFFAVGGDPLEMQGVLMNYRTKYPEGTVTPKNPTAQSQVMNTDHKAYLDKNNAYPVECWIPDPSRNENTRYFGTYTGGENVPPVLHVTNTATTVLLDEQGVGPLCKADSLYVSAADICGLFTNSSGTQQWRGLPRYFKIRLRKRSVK

BKV serotype III VLP = molecular target: T4, BKV serotype III VLP (BK virus serotype III, UniProt P14996 1-362); experiment: SPR (Biacore): antibody captured via Protein A, VLPs flowed over; concentrations not given
T4 construct: also called serotype III VLPs
T4 chain: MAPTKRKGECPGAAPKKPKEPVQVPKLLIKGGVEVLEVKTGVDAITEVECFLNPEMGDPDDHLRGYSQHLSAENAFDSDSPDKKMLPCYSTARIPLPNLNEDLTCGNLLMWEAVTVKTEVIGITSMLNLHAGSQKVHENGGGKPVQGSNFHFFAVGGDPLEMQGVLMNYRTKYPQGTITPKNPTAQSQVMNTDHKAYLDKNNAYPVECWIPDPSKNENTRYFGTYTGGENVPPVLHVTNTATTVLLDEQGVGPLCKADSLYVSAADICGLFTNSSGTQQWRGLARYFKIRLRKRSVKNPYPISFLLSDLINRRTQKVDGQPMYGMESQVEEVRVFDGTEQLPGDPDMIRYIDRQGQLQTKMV

[4] = molecular target: T1, BKV serotype I VP1 pentamer; experiment: SET (solution equilibrium titration) on VP1 pentamers
[5] = molecular target: T3, BKV serotype IV VP1 pentamer; experiment: as above
JCV L55F mutant VLP [6] = molecular target: T5, JCV L55F mutant VLP (JC virus, UniProt P03089 1-354); experiment: SET assay
JCV L55F mutant VLP [7] = molecular target: T5, JCV L55F mutant VLP; experiment: SET (solution equilibrium titration) on JCV VLPs
JCV S269F mutant VLP = JCV S269F mutant VLP (JC virus, UniProt P03089 1-354); experiment: SET (solution equilibrium titration) on JCV VLPs

B1: EBB-C1975-E7 (antibody, human IgG1, kappa, V domains shown)
VH: EVQLLESGGGLVRPGGSLRVSCAASGFTVSRNYMSWVRQAPGKGLEWVSGIYGGGRTYYAESVKGRFTISRDYSKNTLFLQMNTLRVEDTALYFCAREDEFWSGYSAGVDWGQGTLVTVSS
VL: DIQVTQSPSSLSASVGDRVTITCRASQSISSYLNWYQQEPGKAPKLLIYAASTLQTGVPSRFSGSGSGTDFTLTISSLQPEDFATYYCQQSYNTPRTFGQGTKVEIKR
binding result [1]: no binding
binding result [2]: no binding
IC50 [3]: 26 pM
binding result (BKV serotype III VLP): no binding

B2: EBB-C1975-A3 (antibody, V domains shown)
VH: B1 VH with L5V, S7T, R13Q, V20L, S30R, G53S, R56S, E61D, F79S, L92V
VL: not shown
binding result [1]: no binding
binding result [2]: no binding
binding result (BKV serotype III VLP): no binding

B3: EBB-C1975-A7 (antibody, V domains shown)
VH: B1 VH with E1Q, L5V, R13Q, V20L, G53S, R56S, E61D, F79S, L92V
VL: not shown
binding result [2]: no binding
binding result (BKV serotype III VLP): no binding

B4: P7G11 (antibody, human IgG1, lambda, V domains shown)
VH: QVQLQESGPGLAKPSQTLSLTCSVSGGSISSGGYSWSWIRQPPGKGLEYIGYIYYRGTTYYNPSLKSRITMSVDTSNNQISLKLTSVTAADTAVYYCARALTHLVGVGWFDPWGQGTMVTVSS
VL: QSVLTQPPSVSAAPGQKVTISCSGGSSNLGSNYVSWYQQLPGTAPKLLIYDNNKRPSGIPDRFSGSKSGTSATLGITGLQTGDEADYYCGTWDGSLSAWVFGGGTKVTVLG
Kd [4]: 4.2 pM

B5: NEG447A (antibody, human IgG1, lambda, V domains shown)
VH: QVQLQESGPGLVKPSETLSLTCTVSGGSISRDYWSWVRQPPGAGLEWIGNIYYSGSTNYNPSLKSRVTISVATNKKQFSLKLTSVTAADTAVYYCARVPGCSSTSCIDGWFDPWGQGILVTVSS
VL: B4 VL with G25S, L29I, S31N, N32T, G94S, K106R, V107L
Kd [5]: 185 pM

B6: P8D11 (antibody, human IgG1, lambda)
heavy: not shown
light: QSVLTQPPSVSVAPGKTARITCGGDNIGSRPVHWYQQKPGQAPILVVYDDSNRPSGIPERFSGSNSGNTATLTISRVEAGDEADYYCQVWSSSTDHPFGGGTKVTVLGQPKAAPSVTLFPPSSEELQANKATLVCLISDFYPGAVTVAWKADSSPVKAGVETTTPSKQSNNKYAASSYLSLTPEQWKSHRSYSCQVTHEGSTVEKTVAPTECS
fold lower affinity (against wild type (consensus) and S269F mutant VLPs) (JCV L55F mutant VLP [6]): ~2 fold
Kd (JCV L55F mutant VLP [7]): 933 pM
Kd (JCV S269F mutant VLP): 327 pM
